Anti-infective test results gathered from many reports (values: NIAID ChemDB through PubChem).

Common to all: tests in culture; agent: HIV-1; cells: PBMC; endpoint: EC50

ECn: concentration that inhibits the pathogen or its effect by n%. Neighbouring rows are from separate reports. An empty or dashed field is not shown.

SMILES,strain,mutations,method,result
CN(C)CCSc1ccc(-c2ccc(-c3ccc(SCCN(C)C)cc3)nn2)cc1,LAV,-,RT activity,5.8 µM
CCOC(=O)[C@H](C)NP(=O)(OC[C@@H]1OC[C@H](n2cnc3c(OC)nc(N)nc32)O1)Oc1ccccc1,LAI,-,RT activity,0.004 µM
COc1cc2ccnc3c2c(c1OCCCCCCCCCOc1c(OC)cc2ccnc4c2c1N(C)C=C4)N(C)C=C3,-,-,-,0.52 µM
Nc1nc2c(ncn2OCC2COP(=O)(O)CO2)c(=O)[nH]1,-,-,-,0.44 µM
Cc1nc(CCCCCCC(=O)c2ccccc2)n2nc(NCCCCCCCCCCCCNCc3cn([C@H]4C=C[C@@H](CO)O4)c(=O)[nH]c3=O)ccc12,IIIB,-,RT activity,0.04 µM
CN(C)CCNc1cc(-c2cccs2)nc2ccccc12,LAV,-,p24,0.6 µM
C[C@H]1[C@H](O)[C@@H](C)/C=C/C=C/C=C/C=C/C=C/C=C/C=C/[C@H](O[C@@H]2O[C@H](C)[C@@H](O)[C@H](N)[C@@H]2O)C[C@@H]2O[C@](O)(C[C@@H](O)C[C@@H](O)CC[C@H](O)[C@@H](O)C[C@@H](O)CC(=O)O[C@H]1C)C[C@H](O)[C@H]2C(=O)O,MDR807 Primary isolate X4 (SI),-,p24 / RT activity,0.9 µM
Nc1ncnc2c1ccn2[C@H]1C=C[C@@H](CO)C1,IIIB,-,RT activity,0.4 µM
C#Cc1cnc(OC)nc1OC,LAI,-,-,65.2 µM
Cc1cn([C@H]2C[C@H](N=[N+]=[N-])[C@@H](CO)O2)c(=O)[nH]c1=O,BR-92-025 (subtype C),-,RT activity,0.00095 µM
Clc1cc(CN2CCCNCCNCCCNCC2)cc(Cl)n1,R5 X4 clinical isolate #18,-,p24,3.6 µM
CN(C)CCSc1nc(-c2ccccc2)c2ccccc2n1,LAV,-,RT activity,22.4 µM
Nc1nc(N)c2ncn(OCCOCP(=O)(O)O)c2n1,-,-,-,0.03 µM
CN1CCN(CCSc2nccc(-c3cccs3)n2)CC1,LAV,-,RT activity,16.9 µM
Cc1nc(CCCCCCC(=O)c2ccccc2)n2nc(NCCCCCCCCN)ccc12,IIIB,-,RT activity,>10 µM
C=C(C)[C@@H]1CC[C@]2(C(=O)NCCCCCCCC(=O)N[C@@H](CC(C)C)[C@@H](O)CC(=O)O)CC[C@]3(C)[C@H](CC[C@@H]4[C@@]5(C)CC[C@H](O)C(C)(C)[C@@H]5CC[C@]43C)[C@@H]12,IIIB,-,p24 / RT activity,<0.1 µM
COP(=O)(c1cc(C)cc(CCC#N)c1)c1c(C(N)=O)[nH]c2ccc(Cl)c(F)c12,BH10,-,-,0.0004 µM
CN(C)CCNc1c2c(nc3ccccc13)-c1ccsc1CC2,LAV,-,p24,4 µM
COC(=O)[C@H](Cc1ccccc1)NP(=O)(O)OC[C@H]1O[C@@H](n2cc(C)c(=O)[nH]c2=O)C[C@@H]1N=[N+]=[N-],LAV,-,RT activity,0.6 µM
CN1c2ccccc2C2C1C=C(C#N)C(=O)N2c1ccc([N+](=O)[O-])cc1,B-92US026,-,GFP / fluorescence,1.42 µM
Cc1cn([C@@H]2C=C(F)[C@H](CO)O2)c(=O)[nH]c1=O,LAI,-,RT activity,>100 µM
C=CCN(C(=O)OCc1ccc([N+](=O)[O-])cc1)C1CCN(C[C@H]2CN(C(=O)C3CCCC3)C[C@]2(O)c2ccccc2)CC1,CA9 R5 CLADE O,-,p24,0.0003 µM
CN(C)CCSc1cccc(-c2cc(-c3cccc(SCCN(C)C)c3)nc(SCCN(C)C)n2)c1,LAV,-,RT activity,6.2 µM
Cn1c2ccccc2c(=O)c2c(O)cccc21,IIIB,-,p24 / ELISA,1.4 µg/mL
COc1cc(OC)cc(C(=O)OCc2nc3ccccc3nc2C)c1,BaL,-,RT activity,>100 µM
CN(C)CCNc1nc(-c2ccccc2)nc2ccccc12,LAV,-,p24,12.5 µM
Cc1nc2ccccc2nc1COC(=O)c1ccc2ccccc2c1O,89BZ167,-,RT activity,>100 µM
Cc1nc(CCCCCCC(=O)c2ccccc2)n2nc(NCCCCCCN)ccc12,IIIB,-,RT activity,>10 µM
C#Cc1c[nH]c(=O)[nH]c1=O,LAI,-,-,37.7 µM
Nc1ncnc2c1ncn2[C@@H]1OC[C@H](/C=C/P(=O)(O)O)C12CC2,LAV-1,-,RT activity,62.8 µM
Nc1nc2c(ncn2[C@H]2CO[C@@H](CO)O2)c(=O)[nH]1,LAI,-,RT activity,0.4 µM
Cc1ccc(C(=O)OCc2nc3ccccc3nc2C)cc1O,89BZ167,-,RT activity,27.3 µM
CN(C)c1ccc(Nc2c3ccc(NC(=O)CCN4CCCC4)cc3nc3cc(NC(=O)CCN4CCCC4)ccc23)cc1,BaL,-,p24 / antigen,17.4 µM
CN(C)CCNc1c2c(nc3ccccc13)-c1ccccc1CC2,LAV,-,p24,1.6 µM
CN1CCN(CCSc2nnc(-c3ccc4ccccc4c3)c3ccccc23)CC1,LAV,-,RT activity,12.2 µM
Nc1nc2c(ncn2[C@@H]2OC[C@H](/C=C/P(=O)(O)O)C23CC3)c(=O)[nH]1,LAV-1,-,RT activity,66 µM
Nc1nc2c(ncn2[C@H]2C=C(F)[C@@H](CO)O2)c(=O)[nH]1,LAI,-,RT activity,>100 µM
COc1ncc(C#C[Si](C)(C)C)c(OC)n1,LAI,-,-,1.2 µM
Nc1ccn([C@@H]2O[C@H](CO)C=C2F)c(=O)n1,-,RT-M184V,RT activity,<1.8 µM
CN1CCN(c2c3c(nc4ccccc24)-c2ccsc2CC3)CC1,LAV,-,p24,2 µM
O=c1ccn([C@@H]2C=C(F)[C@H](CO)O2)c(=O)[nH]1,LAI,-,RT activity,>100 µM
O=c1[nH]c(=O)n([C@H]2C=C[C@@H](CO)O2)cc1CO,IIIB,-,RT activity,0.14 µM
COC(=O)[C@H](Cc1ccccc1)NP(=O)(OCCC#N)OC[C@H]1O[C@@H](n2cc(C)c(=O)[nH]c2=O)C[C@@H]1N=[N+]=[N-],LAV,-,RT activity,>1 µM
CCOCc1cn([C@H]2C=C[C@@H](CO)O2)c(=O)[nH]c1=O,IIIB,-,RT activity,1.85 µM
COC(=O)[C@H](Cc1c[nH]c2ccccc12)NP(=O)(OC)OC[C@H]1O[C@@H](n2cc(C)c(=O)[nH]c2=O)C[C@@H]1N=[N+]=[N-],LAV,-,RT activity,0.3 µM
NC(=O)c1cnn([C@@H]2C=C(CO)C(O)C2O)c1,LAI,-,-,24 µM
Nc1ncnc2c1ncn2C[C@H]1C[C@H]1[C@H](O)CO,LAV,-,-,>100 µM
Cc1ccnc2c1NC(=O)c1cccnc1N2C1CC1,SF33,-,p24 / ELISA,0.69 µM
Cc1nc2ccccc2nc1COC(=O)c1ccc(O)cc1O,89BZ167,-,RT activity,>100 µM
COc1nc(N)nc2c1ncn2OCCOCP(=O)(O)O,-,-,-,0.01 µM
CCCCCCCCCCCN1C=Cc2cc(OC)c(O)c3c2c1cc[n+]3CCCCCCCCCCC,-,-,-,2.8 µM
Cc1nc2ccccc2nc1COC(=O)c1ccc(O)cc1,89BZ167,-,RT activity,>100 µM
Cc1cn([C@H]2C=C[C@@H](CO)O2)c(=O)[nH]c1=O,IIIB,-,RT activity,0.05 µM
O=c1[nH]cnc2c1ncn2[C@@H]1C=C(F)[C@H](CO)O1,LAI,-,RT activity,>100 µM
O=c1[nH]cnc2c1ncn2C[C@H]1C[C@H]1CO,LAV,-,-,>100 µM
Cc1cn([C@H]2C[C@H](N=[N+]=[N-])[C@@H](CO)O2)c(=O)[nH]c1=O,BaL,-,RT activity,0.0143 µM
OCCN(CCO)CCOc1nc(-c2cccs2)cc(-c2cccs2)n1,LAV,-,RT activity,3.8 µM
CN(C[C@@H](CCN1CCC(CCCc2ccccc2)CC1)c1cccc(Cl)c1)S(=O)(=O)c1ccccc1,YU2,-,p24,<50 µM
OCCC#Cc1nc(-c2ccc(F)cc2)c(-c2ccncc2)n1CCCc1ccccc1,Nevirapine resistant N119 Clinical isolate,-,p24,1 µM
CC1CC(C)CN(S(=O)(=O)c2ccccc2[N+](=O)[O-])C1,B-92US026,-,GFP / fluorescence,0.37 µM
CCCCCCCCCCCCCCCC[n+]1ccc2cc(OC)c(OC)c3c2c1C=CN3,-,-,-,<1 µM
O=c1ccn(C[C@H]2C[C@H]2CO)c(=O)[nH]1,LAV,-,-,>100 µM
Nc1ncnc2c1ncn2[C@H]1C[C@@H](CO)[C@H](O)[C@@H]1O,LAV,-,-,>100 µM
CCOC(=O)[C@H](C)NP(=O)(OC[C@@H]1OC[C@H](n2cnc3c(Cl)nc(N)nc32)O1)Oc1ccccc1,LAI,-,RT activity,0.004 µM

For reference, 7 entries again:

CCOC(=O)[C@H](C)NP(=O)(OC[C@@H]1OC[C@H](n2cnc3c(OC)nc(N)nc32)O1)Oc1ccccc1 ; strain: LAI ; method: RT activity ; result: 0.004 µM
Nc1nc2c(ncn2[C@H]2C=C(F)[C@@H](CO)O2)c(=O)[nH]1 ; strain: LAI ; method: RT activity ; result: >100 µM
CN1CCN(CCSc2nnc(-c3ccc4ccccc4c3)c3ccccc23)CC1 ; strain: LAV ; method: RT activity ; result: 12.2 µM
COC(=O)[C@H](Cc1c[nH]c2ccccc12)NP(=O)(OC)OC[C@H]1O[C@@H](n2cc(C)c(=O)[nH]c2=O)C[C@@H]1N=[N+]=[N-] ; strain: LAV ; method: RT activity ; result: 0.3 µM
OCCN(CCO)CCOc1nc(-c2cccs2)cc(-c2cccs2)n1 ; strain: LAV ; method: RT activity ; result: 3.8 µM
CN1CCN(CCSc2nccc(-c3cccs3)n2)CC1 ; strain: LAV ; method: RT activity ; result: 16.9 µM
CCOCc1cn([C@H]2C=C[C@@H](CO)O2)c(=O)[nH]c1=O ; strain: IIIB ; method: RT activity ; result: 1.85 µM